The test system of this series is crypto-M. tuberculosis MAS (FAS/PKS hybrid) labeled with coumarin-PPant.

We go through 3 substances from patent US20150253335.

For the substance “acyl carrier protein hydrolase (AcpH) from Cyanothece PCC 7822”, the “AcpH qualitative CP activity” value is “no”. For the substance “acyl carrier protein hydrolase (AcpH) from Pseudomonas aeruginosa PAO1”, the “AcpH qualitative CP activity” value is reported as “no”.

With “annotated hypothetical AcpH homolog from Shewanella oneidensis MR-1”, the “AcpH qualitative CP activity” value is listed as “no”.
